Pooled drug test results. Numbers come from NIAID ChemDB, via PubChem.

Shared fields: growth or infection tests

Zones are inhibition diameters on agar. An empty or dashed field is not shown. MIC50, MIC90 and the like: level of inhibition, or share of isolates inhibited. Neighbouring rows are from separate reports. Inhibition is in % at the dose shown (toxicity tests: loss of growth or viability). a–b is a range or a potency band.

compound | strain or isolate | dose | agent | mutations | read by | measure | conditions | value
S=C(N/N=C/c1c[nH]c2ccccc12)Nc1ccccc1 | CMT 0334 | - | Aspergillus parasiticus | - | broth dilution | MIC | - | 500 µg/mL
CC(C)C[C@H](N)C(=O)O | MRCM 25730 | - | Aspergillus terreus | - | broth dilution | MFC100 | - | >18000 µg/mL
CCCCNC(=S)N/N=C/C=C/c1ccccc1 | CMT 0334 | - | Aspergillus parasiticus | - | broth dilution | MIC | - | 500 µg/mL
CS(=O)(=O)c1nc(N)c(C#N)c(-c2cccc([N+](=O)[O-])c2)n1 | MTCC 282 | 100 µg/mL | Aspergillus niger | - | agar diffusion | zone | - | 20 mm
Cn1c(=O)c(-c2[nH][nH]c(=O)c2C=Nc2ccc(Cl)cc2)c(O)c2ccccc21 | ATCC 28542 | 1 mg/mL | Aspergillus flavus | - | agar diffusion | zone | - | 16 mm
CCNC(=S)N/N=C/c1c[nH]c2ccccc12 | CMT 0334 | - | Aspergillus parasiticus | - | broth dilution | MIC | - | 500 µg/mL
C[C@@H](c1ncncc1F)[C@](O)(Cn1cncn1)c1ccc(F)cc1F | 11 | - | Aspergillus terreus | - | broth dilution | MIC | - | 1 µg/mL
Cn1c(=O)c(-c2[nH][nH]c(=O)c2N=Nc2ccccc2Cl)c(O)c2ccccc21 | ATCC 28542 | 1 mg/mL | Aspergillus flavus | - | agar diffusion | zone | - | 14 mm
CCOc1ccc(C2=NN(c3ccccc3)C(c3ccc(SC)cc3)C2)cc1 | NCIM 596 | 2000 µg/mL | Aspergillus niger | - | broth dilution | inhibition | - | 85.29%
COc1ccc(-c2nc3ccccc3c(=O)n2-c2ccc(NS(=O)(=O)C3C(=O)ONN3c3ccc(C)cc3)cc2)cc1[N+](=O)[O-] | MTCC323 | 250 µg/mL | Aspergillus clavatus | - | agar diffusion | zone | - | 22 mm
NC(=S)N/N=C(/C=C/c1ccc([N+](=O)[O-])cc1)c1ccccc1 | MCT 00334 | - | Aspergillus parasiticus | - | broth dilution | MIC | - | 500 µg/mL
S=C(N/N=C/c1c[nH]c2ccccc12)NC1CCCCC1 | CMT 0334 | - | Aspergillus parasiticus | - | broth dilution | MIC | - | 500 µg/mL
COc1ccc(C2=NN(c3ccccc3)C(c3ccc(SC)cc3)C2)cc1OC | NCIM 596 | 2000 µg/mL | Aspergillus niger | - | broth dilution | inhibition | - | 9.65%
O=C(NN1C(=O)CSC1C1C(c2ccccc2)=Nc2ccc(Cl)cc21)N1c2ccccc2C=Cc2ccccc21 | MTCC-1782 | 1000 µg/mL | Aspergillus terreus | - | agar diffusion | zone | - | 14 mm
N#Cc1ccc(/C=C2\SC(=O)N(CC(O)(Cn3nccn3)c3ccc(F)cc3F)C2=O)cc1 | - | - | Aspergillus glaucus | - | - | MIC | - | >100 µg/mL
CC1=C2C3=C4[C@](C)([C@@H]5C[C@@H]5[C@@]4(O)C[C@@H]4[C@]35OC(=O)C3=C5C[C@H]5[C@](O)(COC(=O)/C(C)=C/COC(=O)CCC(=O)OC3)[C@H]3C[C@H]3[C@]45C)[C@@H](O)[C@]2(O)OC1=O | ATCC 293 | - | Aspergillus spp. | - | broth dilution | MIC | - | >256 µg/mL
Cc1cc(C=Nc2ccc(N=Cc3cc(C)cc(/C=N/Nc4nc5ccccc5s4)c3O)cc2)c(O)c(/C=C/Nc2nc3ccccc3s2)c1 | - | 100 µg/mL | Aspergillus niger | - | turbidity | inhibition | - | 50.94%
Cc1ccc(N2NOC(=O)C2S(=O)(=O)Nc2nc3ccc(Br)cc3s2)cc1 | MTCC323 | 250 µg/mL | Aspergillus clavatus | - | agar diffusion | zone | - | 24 mm
Cc1ccc(N=Nc2c(-c3c(O)c4ccccc4n(C)c3=O)[nH][nH]c2=O)cc1 | ATCC 28542 | - | Aspergillus flavus | - | - | MIC | - | >100 µg/mL
Cc1ccc(N2NOC(=O)C2S(=O)(=O)Nc2nc3c([N+](=O)[O-])cccc3s2)cc1 | MTCC323 | 250 µg/mL | Aspergillus clavatus | - | agar diffusion | zone | - | 21 mm
O=C1S/C(=C\c2ccc(Cl)cc2)C(=O)N1CC(O)(Cn1nccn1)c1ccc(F)cc1F | - | - | Aspergillus glaucus | - | - | MIC | - | >100 µg/mL
C[C@H]1[C@H](O)[C@@H](C)/C=C/C=C/C=C/C=C/C=C/C=C/C=C/[C@H](O[C@@H]2O[C@H](C)[C@@H](O)[C@H](N)[C@@H]2O)C[C@@H]2O[C@](O)(C[C@@H](O)C[C@@H](O)CC[C@H](O)[C@@H](O)C[C@@H](O)CC(=O)O[C@H]1C)C[C@H](O)[C@H]2C(=O)O | ATCC 10690 | - | Aspergillus terreus | - | broth dilution | MIC100 | 48 h | 1 µg/mL
COc1ccc(C(O)Cn2ccnc2)cc1 | - | 100 µg/mL | Aspergillus fumigatus | - | broth dilution | inhibition | - | 73%
O=C1S/C(=C\c2ccoc2)C(=O)N1CC(O)(Cn1nccn1)c1ccc(F)cc1F | - | - | Aspergillus glaucus | - | - | MIC | - | >100 µg/mL
C[C@@H]1C/C=C/C=C/C=C/C=C/[C@H](OC2O[C@H](C)[C@@H](O)[C@H](N)[C@@H]2O)CC2O[C@](O)(C[C@@H](O)C[C@H]3O[C@@H]3/C=C/C(=O)O1)C[C@H](O)[C@H]2C(=O)O | Species complex | - | Aspergillus versicolor | - | - | MIC90 | - | 32 µg/mL
CS(=O)(=O)c1nc(N)c(C#N)c(-c2ccc(O)cc2)n1 | MTCC 282 | 100 µg/mL | Aspergillus niger | - | agar diffusion | zone | - | 20 mm
OC(Cn1cncn1)(Cn1cncn1)c1ccc(F)cc1F | - | - | Aspergillus glaucus | - | - | MIC | - | >100 µg/mL
O=C(c1cn2cnnc2nn1)c1nn(-c2ccccc2)cc1-c1ccc([N+](=O)[O-])cc1 | - | 1.25 mg/mL | Aspergillus fumigatus | - | agar diffusion / agar | zone | - | 2 mm
C[C@H]1[C@H](O)[C@@H](C)/C=C/C=C/C=C/C=C/C=C/C=C/C=C/[C@H](O[C@@H]2O[C@H](C)[C@@H](O)[C@H](N)[C@@H]2O)C[C@@H]2O[C@](O)(C[C@@H](O)C[C@@H](O)CC[C@H](O)[C@@H](O)C[C@@H](O)CC(=O)O[C@H]1C)C[C@H](O)[C@H]2C(=O)O | - | 10 mg/disc | Aspergillus fumigatus | - | agar diffusion | zone | - | 0 mm
COc1ccc(C2N=C(SC)NC(N)=C2C#N)cc1 | MTCC 282 | 50 µg/mL | Aspergillus niger | - | agar diffusion | zone | - | 14 mm
Cc1ccc(-n2cc(-c3ccc([N+](=O)[O-])cc3)c(-c3ccon3)n2)cc1 | - | 5 mg/mL | Aspergillus fumigatus | - | agar diffusion / agar | zone | - | 22 mm
O=C(NN=CC1C(c2ccccc2)=Nc2ccccc21)N1c2ccccc2C=Cc2ccccc21 | MTCC-3567 | 750 µg/mL | Aspergillus oryzae | - | agar diffusion | zone | - | 12 mm
CCOC(=O)c1ccc(-c2nn(-c3ccccc3)cc2-c2ccc([N+](=O)[O-])cc2)nc1C | - | 1.25 mg/mL | Aspergillus fumigatus | - | agar diffusion / agar | zone | - | 5 mm
CC1=C2C(=O)c3c(C)coc3C[C@@]2(C)[C@H](O)C[C@H]1O | ATCC 293 | - | Aspergillus spp. | - | broth dilution | MIC | - | >256 µg/mL
Cc1cc(O)c2c(c1)C(=O)c1cc(O)c(O)c(O)c1C2=O | - | - | Aspergillus nidulans | cclA delta mdpG delta | visual reading | MIC100 | - | 142–284 µM
CCCCCCCCCCCCOC(=O)[C@]1(O)C[C@@H](O)[C@@H](O)[C@H](OC(=O)/C=C/c2ccc(O)c(O)c2)C1 | UMIP 1142.76 | - | Aspergillus parasiticus | - | absorbance | MIC80 | - | 1500 µg/mL
Cc1ccc2c(c1)C(C1SCC(=O)N1NC(=O)N1c3ccccc3C=Cc3ccccc31)C(c1ccccc1)=N2 | MTCC-3567 | 1000 µg/mL | Aspergillus oryzae | - | agar diffusion | zone | - | 5 mm
C[C@@H](c1nc(-c2ccc(C#N)cc2)cs1)[C@](O)(Cn1cncn1)c1cc(F)ccc1F | - | - | Aspergillus lentulus | - | broth dilution | MIC90 | - | 0.25 µg/mL
Cc1cc(=O)n(-c2ccc(N=Cc3c(-c4c(O)c5ccccc5n(C)c4=O)[nH][nH]c3=O)cc2)n1C | ATCC 28542 | - | Aspergillus flavus | - | - | MIC | - | >100 µg/mL
CC(C)CC(O)C(=O)O | MRCM 26158 | - | Aspergillus terreus | - | broth dilution / visual reading | MFC100 | - | 18000 µg/mL
OC(Cn1cncn1)c1ccc(F)cc1F | - | 100 µg/mL | Aspergillus fumigatus | - | broth dilution | inhibition | - | 54%
N#Cc1ccc(Nc2nc(Oc3ccnc4ccccc34)nc(N3CCN(c4ccccc4)CC3)n2)cc1C(F)(F)F | MTCC 1323 | 100 µg/mL | Aspergillus clavatus | - | agar | zone | - | <10 mm
O=C1S/C(=C\c2ccncc2)C(=O)N1CC(O)(Cn1nccn1)c1ccc(F)cc1F | - | - | Aspergillus glaucus | - | - | MIC | - | >100 µg/mL
O=C(Cn1cncn1)c1ccc([N+](=O)[O-])cc1 | - | 80 µg/mL | Aspergillus fumigatus | - | broth dilution | inhibition | - | 12%
CN1CCN(c2nc(Nc3ccc(C#N)c(C(F)(F)F)c3)nc(Oc3ccnc4ccccc34)n2)CC1 | - | 100 µg/mL | Aspergillus clavatus | - | agar | zone | - | <10 mm
Cc1ccc(N2NOC(=O)C2S(=O)(=O)Nc2ccc(-n3c(-c4cccc(Br)c4)nc4ccccc4c3=O)cc2)cc1 | MTCC323 | 250 µg/mL | Aspergillus clavatus | - | agar diffusion | zone | - | 23 mm
CN(C)/C=C/C(=O)c1nn(-c2ccccc2)cc1-c1ccc([N+](=O)[O-])cc1 | - | 1.25 mg/mL | Aspergillus fumigatus | - | agar diffusion / agar | zone | - | 3 mm
Cn1c(=O)c(-c2[nH][nH]c(=O)c2/C=N/c2cscn2)c(O)c2ccccc21 | ATCC 28542 | - | Aspergillus flavus | - | - | MIC | - | 25 µg/mL
CC1=C(Cl)C(O)=CC(=O)C12Oc1cc(O)c(Cl)c(C)c1C2=O | MTCC 282 | 25 µg/mL | Aspergillus niger | - | agar diffusion | zone | - | 21 mm
CN1C(=O)/C(=c2/[nH][nH]c(=O)/c2=C\c2ccccn2)C(=O)c2ccccc21 | ATCC 28542 | - | Aspergillus flavus | - | - | MIC | - | >100 µg/mL
N#Cc1ccc(Nc2nc(Oc3ccnc4ccccc34)nc(N3CCN(c4ccccn4)CC3)n2)cc1C(F)(F)F | MTCC 1323 | 100 µg/mL | Aspergillus clavatus | - | agar | zone | - | <10 mm
COc1ccc(C2=NN(c3ccccc3)C(c3ccc(SC)cc3)C2)cc1 | NCIM 596 | 2000 µg/mL | Aspergillus niger | - | broth dilution | inhibition | - | 81.09%
Nc1ncccc1-c1cc(Cc2ccc(COc3ccccn3)cc2)no1 | - | - | Aspergillus nidulans | - | broth dilution | MIC50 | - | 0.06 µg/mL
CC(=O)c1ccc(-c2nn(-c3ccc(C)cc3)cc2-c2ccc([N+](=O)[O-])cc2)nc1C | - | 1.25 mg/mL | Aspergillus fumigatus | - | agar diffusion / agar | zone | - | 0 mm
C/C1=C\C(=O)c2c(C)coc2C/C(C)=C/CC1 | ATCC 293 | - | Aspergillus spp. | - | broth dilution | MIC | - | >256 µg/mL

For reference, 7 entries again:

compound | strain or isolate | dose | agent | mutations | read by | measure | conditions | value
COc1ccc(C2=NN(c3ccccc3)C(c3ccc(SC)cc3)C2)cc1OC | NCIM 596 | 2000 µg/mL | Aspergillus niger | - | broth dilution | inhibition | - | 9.65%
OC(Cn1cncn1)c1ccc(F)cc1F | - | 100 µg/mL | Aspergillus fumigatus | - | broth dilution | inhibition | - | 54%
O=C(NN1C(=O)CSC1C1C(c2ccccc2)=Nc2ccc(Cl)cc21)N1c2ccccc2C=Cc2ccccc21 | MTCC-1782 | 1000 µg/mL | Aspergillus terreus | - | agar diffusion | zone | - | 14 mm
COc1ccc(-c2nc3ccccc3c(=O)n2-c2ccc(NS(=O)(=O)C3C(=O)ONN3c3ccc(C)cc3)cc2)cc1[N+](=O)[O-] | MTCC323 | 250 µg/mL | Aspergillus clavatus | - | agar diffusion | zone | - | 22 mm
N#Cc1ccc(Nc2nc(Oc3ccnc4ccccc34)nc(N3CCN(c4ccccc4)CC3)n2)cc1C(F)(F)F | MTCC 1323 | 100 µg/mL | Aspergillus clavatus | - | agar | zone | - | <10 mm
Cc1cc(O)c2c(c1)C(=O)c1cc(O)c(O)c(O)c1C2=O | - | - | Aspergillus nidulans | cclA delta mdpG delta | visual reading | MIC100 | - | 142–284 µM
Cn1c(=O)c(-c2[nH][nH]c(=O)c2/C=N/c2cscn2)c(O)c2ccccc21 | ATCC 28542 | - | Aspergillus flavus | - | - | MIC | - | 25 µg/mL